# According to publication PMC11112850:
# Chains of the proteins cited; added tags and fusions are not shown. Lines headed by an entry give the natural chain unless they say otherwise; changes in a name come on top.
# UniProt P76141: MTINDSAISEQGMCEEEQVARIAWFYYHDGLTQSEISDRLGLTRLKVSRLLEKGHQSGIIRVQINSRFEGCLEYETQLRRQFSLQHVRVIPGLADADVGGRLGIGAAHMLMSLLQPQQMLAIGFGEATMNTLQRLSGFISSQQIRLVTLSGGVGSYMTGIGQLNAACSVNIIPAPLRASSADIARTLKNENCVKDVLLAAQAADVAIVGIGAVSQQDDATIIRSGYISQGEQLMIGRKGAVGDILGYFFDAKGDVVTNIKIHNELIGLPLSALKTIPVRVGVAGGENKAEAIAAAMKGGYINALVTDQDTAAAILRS
# For at least one entry, the source does not settle the construct or the ends of the probe.
# Target: LsrR (UniProt P76141)
# Experiment: EMSA
# Settings: 0, 0.5, 1, 2 uM LsrR, 100 ng probe, dose-dependent shift, 5x binding buffer (4 uL): 100 mM NaCl, 50 mM Tris-HCl, 3 mM Mg acetate, 0.1 mM EDTA, 0.1 mM DTT, pH 7.5, 30 min at 25 C, recombinant protein, protein details: 6xHis, probe letters rebuilt from the primers and the genome
sequence,measurement,setting,value
TTGATTTAACTTATTGATAATAAAGTTAAAAAAACAAATAAATACAAGACAATTGGGGCCAAACTGTCCATATCATAAATAAGTTACGTATTTTTTCTCAAGCATAAAAATATTAAAAAACGACAAAAAGCATCTAACTGTTTGATATGTAAATTATTTCTATTGTAAATTAATTTCACATCACCTCCGCTATATGTAAAGCTAACGTTTCTGTGGCTCGACGCATCTTCCTCATTCTTCTCTCCAAAAACCACCTCATGCAATATAAACATCTATAAATAAAGATAACAATAGAATATTAAGCCAACAAATAAACTGAAAAAGTTTGTCCGCGATGCTTTCCTCTATGAGTCAAAATGGCCCCAAATGTTTCATCTTTTGGGGGAAAACTGTGCAGTGTTGGCAGTCAAACTCGTTTACAAAACAAAGTGTACAGAACGACTGCCCATGTCGATTTAGAAATAGTTTTTTGAAAGGAAAGCAGC (double strand) [p-fim (fimAICDFGH promoter)],binding result,,binds
ATTTCCCCCGTTCAGTTTTGCAGGTGAGTTTTGAACAAATGTATTTCTGCTTTTAATTTGTTCATAACCTTAGGTGGACATTGCACATATTTCCGACGAATAGATCACAATTTATGCTATTTTGATTTTCACGGTTGCGTTTGTTCATGCTCGTAGAGTCAAACTGTGGTTGCCATCACAGATATAAATGAGCAAGAACTGAACAATTGCATTAAAGATTTAAATATGTTCAAAGTGAAGAATGAATT (double strand) [p-lsrR (lsrR promoter)],binding result,positive control,binds
